Anti-infective test results gathered from many reports (values: NIAID ChemDB through PubChem).

Common to all: toxicity to cultured cells; cell line: CEM; measure: CC50

Lines come from different laboratories, so protocols vary. CCn is the concentration with n% toxicity to the cells. An empty or dashed field is not shown.

SMILES,method,value
CC(C)C(OC(=O)c1cc(NC(=S)c2ccccc2F)ccc1Cl)C(C)C,,7.5 µg/mL
NC12CC3CC(CC(C3)C1)C2,,315 µM
CCC(C)C(NC(=O)c1ccccc1SSc1ccccc1C(=O)NC(C(=O)O)C(C)CC)C(=O)O,,>100 µM
CSS[C@@H]1[C@H](O)[C@@H](CO)O[C@H]1n1ccc(=O)[nH]c1=O,MTT,160 µM
C=C(C)[C@@H]1CC[C@]2(C(=O)NCCCCCCCCCC(=O)O)CC[C@]3(C)[C@H](CC[C@@H]4[C@@]5(C)CC[C@H](O)C(C)(C)[C@@H]5CC[C@]43C)[C@@H]12,,>3 µM
Nc1cc(OC[C@H]2CC[C@@H](COCc3ccccc3)O2)nc(N)n1,,>250 µM
O=C(O)n1sc2ccccc2c1=O,,>100 µM
Cc1occc1C(=S)Nc1ccc(Cl)c(C(=O)OCC(F)(F)F)c1,,>100 µg/mL
Cc1cccc(C)c1NC(=O)c1ccc([N+](=O)[O-])cc1,,99 µM
CCn1cc(C(=O)O)c(=O)c2cc(F)c(N3CCN(CN4C(=O)/C(=N\c5ncc(Cc6cc(OC)c(OC)c(OC)c6)c(N)n5)c5cc(F)ccc54)CC3)cc21,XTT,139 µg/mL
Cc1sccc1C(=O)Nc1ccc(Cl)c(C(=O)OC(C(C)C)C(C)C)c1,,4.1 µg/mL
CC(C)C[C@@H](CC(=O)O)NC(=O)c1ccccc1SSc1ccccc1C(=O)N[C@H](CC(=O)O)CC(C)C,,92 µM
Cc1ccc2nc(Cl)c(/C=C/C(=O)c3ccc(C)s3)cc2c1,MTS,4.4 µM
Nc1ccn([C@H]2O[C@@H](CO)C=C2F)c(=O)n1,,>100 µM
COc1ccc2nc(Cl)c(/C=C/C(=O)c3cc(Cl)sc3Cl)cc2c1,MTS,6.5 µM
COC(=O)[C@H]1NC(=O)[C@H]2NC(=O)[C@H](NC(=O)[C@H](N)c3cc(Oc4ccc(C[C@@H](NC(=O)OCc5ccccc5)C(=O)O)cc4Cl)c(O)c(c3)Oc3ccc(cc3Cl)[C@H]2O)c2ccc(O)c(c2)-c2c(O)cc(O)cc21,cell count,>500 µM
CC1=C(C(=O)Nc2ccc(Cl)c(OCCC(C)C)c2)SCCO1,,>100 µg/mL
Cc1c(N)nc(N)nc1OCCOCP(=O)(O)O,,33 µM
COc1ccc2c(c1)C(=O)N(c1c(C)cccc1C)C2=O,,>702 µM
N#Cc1ccc(NC(=O)c2ccccc2SSc2ccccc2C(=O)Nc2ccc(C#N)cc2)cc1,,30 µM
CCCC[C@@H](CC(=O)O)NC(=O)c1ccccc1SSc1ccccc1C(=O)N[C@@H](CCCC)CC(=O)O,,>100 µM
C=C(C)[C@@H]1CC[C@]2(C(=O)NCCCCCCCCCCCCC(=O)O)CC[C@]3(C)[C@H](CC[C@@H]4[C@@]5(C)CC[C@H](O)C(C)(C)[C@@H]5CC[C@]43C)[C@@H]12,,>3 µM
O=Cc1ccc(O)c(O)c1,,<3 µg/mL
CSS[C@@H]1[C@H](O)[C@@H](CO)O[C@H]1n1ccc(N)nc1=O,MTT,82 µM
Oc1ccc(O)cc1,,<3 µg/mL
COc1ccc2nc(Cl)c(/C=C/C(=O)c3cccc4ccccc34)cc2c1,MTS,31.6 µM
O=C(OC1CCCCC1)c1cc(NC(=S)c2ccccc2Cl)ccc1Cl,,8.3 µg/mL
Cc1cc2c(cc1Cl)Sc1ncc(C)n1S2(=O)=O,,>200 µM
Cc1occc1C(=S)Nc1ccc(Cl)c(/C=N/OC2CCCC2)c1,,5.4 µg/mL
C=CCNC(=O)NC(=O)CSC1=NNC2(C(=O)N1)c1ccccc1-c1ccccc12,,31 µM
CC(C)(C)[Si](C)(C)OC[C@H]1O[C@@H](n2ccc(=O)[nH]c2=O)[C@H](O[Si](C)(C)C(C)(C)C)C1(O)[C@H](N=[N+]=[N-])C(N)=O,propidium iodide / flow cytometry,20 µM
CC(C)[C@@H](CC(=O)O)NC(=O)c1ccccc1SSc1ccccc1C(=O)N[C@H](CC(=O)O)C(C)C,,>100 µM
Cc1c(O)cccc1C(=O)N[C@@H](CSc1ccccc1)[C@@H](CN1C[C@H]2CCCC[C@H]2C[C@H]1C(=O)NC(C)(C)C)OC(=O)CCCCOc1ccc(C[C@H](NC(=O)OC(C)(C)C)C(=O)O)cc1,MTT,>100 µM
CCCCc1ccc(CNCc2c(O)cc3c(c2O)-c2cc(ccc2O)[C@H]2NC(=O)[C@@H]4NC(=O)[C@H]5NC(=O)[C@@H](Cc6ccc(c(Cl)c6)Oc6cc4cc(c6O)Oc4ccc(cc4Cl)[C@@H](O)[C@H](NC2=O)C(=O)N[C@@H]3C(=O)O)NC(=O)[C@H](NC(=O)OC(C)(C)C)c2ccc(O)c(c2)Oc2cc(O)cc5c2)cc1,cell count,60 µM
CCN(CC)CN1C(=O)/C(=N\c2ncc(Cc3cc(OC)c(OC)c(OC)c3)c(N)n2)c2cc(F)ccc21,XTT,116 µg/mL
Cc1occc1C(=S)Nc1ccc(Cl)c(C(=O)OC2CCCCC2)c1,,9.7 µg/mL
Nc1cc(OC[C@H]2CC[C@@H](COCc3ccccc3)O2)ncn1,,129 µM
O=C1N=C2SC=C(NC(=S)Nc3ccccc3)N2NC12c1ccccc1-c1ccccc12,,82 µM
Cc1ccc2nc(Cl)c(/C=C/C(=O)c3ccc4c(c3)OCCO4)cc2c1,MTS,16.5 µM
C[C@H](Cc1ccc(OC(=O)CN(C)C)c(OC(=O)CN(C)C)c1)[C@@H](C)Cc1ccc(OC(=O)CN(C)C)c(OC(=O)CN(C)C)c1,,>100 µM
Cc1sccc1C(=O)Nc1ccc(Cl)c(C(=O)OC2CCCCC2)c1,,5.8 µg/mL
COC(=O)[C@@H]1O[C@]12[C@@H](CO[Si](C)(C)C(C)(C)C)O[C@@H](n1ccc(=O)[nH]c1=O)[C@@H]2O[Si](C)(C)C(C)(C)C,propidium iodide / flow cytometry,11 µM
COC(=O)[C@H](CO)NC(=O)c1ccccc1SSc1ccccc1C(=O)N[C@@H](CO)C(=O)OC,,60 µM
Cc1cn([C@H]2C[C@H](N=[N+]=[N-])[C@@H](COP(=O)(OCCC#N)O[C@H]3CC[C@@]4(C)C(=CC[C@@H]5[C@@H]4CC[C@]4(C)C([C@H](C)CCCC(C)C)CC[C@@H]54)C3)O2)c(=O)[nH]c1=O,,>200 µM
CC(C)=CCOc1cc(NC(=S)c2ccoc2C)ccc1Cl,,>100 µg/mL
Nc1nc(N)nc(OC[C@H]2CC[C@@H](COCc3ccccc3)O2)n1,,>250 µM
O=C(O)CCCCCNC(=O)c1ccccc1SSc1ccccc1C(=O)NCCCCCC(=O)O,,80 µM
Nc1ccnc(OC[C@H]2CC[C@@H](COCc3ccccc3)O2)n1,,>250 µM
CC(C)(C)NC(=O)[C@@H]1C[C@@H]2CCCC[C@@H]2CN1C[C@@H](OC(=O)NCCCCOc1ccc(C[C@H](N)C(=O)O)cc1)[C@H](Cc1ccccc1)NC(=O)[C@H](CC(N)=O)NC(=O)c1ccc2ccccc2n1,MTT,>100 µM
Cc1cccc(C)c1N1C(=O)c2ccc([N+](=O)[O-])cc2C1=O,,≥517 µM
NC1=NNC2(C(=O)N1)c1ccccc1-c1ccccc12,,75 µM
Cc1ccc2nc(Cl)c(/C=C/C(=O)c3cc(C)sc3C)cc2c1,MTS,11.6 µM
O=C(NCc1ccccc1)c1ccccc1SSc1ccccc1C(=O)NCc1ccccc1,,10 µM
COC(=O)/C=C1/[C@@H](O[Si](C)(C)C(C)(C)C)[C@H](n2ccc(=O)[nH]c2=O)O[C@@H]1CO[Si](C)(C)C(C)(C)C,propidium iodide / flow cytometry,25 µM
COc1cc(Cc2cnc(/N=C3\C(=O)N(CN4CCN(c5ccc(Cl)cc5)CC4)c4ccc(F)cc43)nc2N)cc(OC)c1OC,XTT,95.6 µg/mL
C=C(C)[C@@H]1CC[C@]2(C(=O)NCCCCCCCC(=O)NC(C)(C)C(=O)O)CC[C@]3(C)[C@H](CC[C@@H]4[C@@]5(C)CC[C@H](O)C(C)(C)[C@@H]5CC[C@]43C)[C@@H]12,,>3 µM
CC(C)NS(=O)(=O)c1ccc(NC(=O)c2ccccc2SSc2ccccc2C(=O)Nc2ccc(S(=O)(=O)NC(C)C)cc2)cc1,,38 µM
O=C1c2ccccc2C(=O)N1C12CC3CC(CC(C3)C1)C2,,>704 µM
Cc1ccc2nc(Cl)c(/C=C/C(=O)c3c4ccccc4cc4ccccc34)cc2c1,MTS,2.9 µM
COc1cc(Cc2cnc(/N=C3\C(=O)N(CN4CCN(Cc5ccccc5)CC4)c4ccc(F)cc43)nc2N)cc(OC)c1OC,XTT,112 µg/mL
Cc1c(C(=O)Nc2ccc(Cl)c(/C=N/OC(C)(C)C)c2)ccn1C,,5.5 µg/mL
Cc1cccc(C)c1N1C(=O)c2ccc(Cl)cc2C1=O,,111 µM
C=CCOc1cc(NC(=S)c2sccc2C)ccc1C#N,,3.6 µg/mL
N[C@H]1C(=O)N[C@@H]2Cc3ccc(c(Cl)c3)Oc3cc4cc(c3O)Oc3ccc(cc3Cl)[C@@H](O)[C@@H]3NC(=O)[C@H](NC(=O)[C@@H]4NC(=O)[C@@H](NC2=O)c2cc(O)cc(c2)Oc2cc1ccc2O)c1ccc(O)c(c1)-c1c(cc(O)c(CNC2C4CC5CC(C4)CC2C5)c1O)[C@@H](C(=O)O)NC3=O,cell count,>250 µM
COc1ccc2nc(Cl)c(/C=C/C(=O)c3cc(C)cs3)cc2c1,MTS,15 µM
OC[C@@H]1CC[C@H](COc2ncnc3nc[nH]c23)O1,,>250 µM
CC(C)=CCOc1cc(NC(=S)c2ccsc2C)ccc1Cl,,5.8 µg/mL
O=C(O)c1ccccc1SSc1ccccc1C(=O)O,,>100 µM
Cn1c2ccccc2c(=O)c2c(O)cccc21,,5.6 µg/mL
CC(C)(C)NC(=O)[C@@H]1CN(Cc2cccnc2)CCN1C[C@@H](O)C[C@@H](Cc1ccccc1)C(=O)N[C@H]1c2ccccc2C[C@H]1OC(=O)[C@H](Cc1ccccc1)NC(=O)OC(C)(C)C,MTT,>100 µM
CN[C@H](CC(C)C)C(=O)N[C@H]1C(=O)N[C@@H](CC(N)=O)C(=O)N[C@H]2C(=O)N[C@H]3C(=O)N[C@H](C(=O)N[C@H](C(=O)O)c4cc(O)c(CNCc5ccc(-c6ccc(Cl)cc6)cc5)c(O)c4-c4cc3ccc4O)[C@H](O[C@H]3C[C@](C)(N)[C@@H](O)[C@H](C)O3)c3ccc(cc3)Oc3cc2cc(c3OC2O[C@H](CO)[C@@H](O)[C@H](O)[C@H]2O[C@H]2C[C@](C)(N)[C@@H](O)[C@H](C)O2)Oc2ccc(cc2Cl)[C@H]1O,cell count,106 µM
COC(=O)/C=C1/[C@@H](O[Si](C)(C)C(C)(C)C)[C@H](n2cc(C)c(=O)[nH]c2=O)O[C@@H]1CO[Si](C)(C)C(C)(C)C,propidium iodide / flow cytometry,22 µM
O=C(O)C[C@H](CCCCNC(=O)OCc1ccccc1)NC(=O)c1ccccc1SSc1ccccc1C(=O)N[C@@H](CCCCNC(=O)OCc1ccccc1)CC(=O)O,,97 µM
CCCCCCCCCCCCCCCC(=O)OCC(COC(=O)CCCCCCCCCCCCCCC)OC(=O)CCC(=O)O[C@@H]1Cc2ccccc2[C@@H]1NC(=O)[C@H](Cc1ccccc1)C[C@H](O)CN1CCN(Cc2cccnc2)C[C@H]1C(=O)NC(C)(C)C,MTT,>100 µM
CC(C)(C)C1CCC2(CC1)CC(O)=C(Sc1ccccc1)C(=O)O2,,5 µM
C=CCNC(=O)NC1=CSC2=NC(=O)C3(NN12)c1ccccc1-c1ccccc13,,70 µM
C=C(C)[C@@H]1CC[C@]2(C(=O)NCCCCC(=O)NCCCCC(=O)O)CC[C@]3(C)[C@H](CC[C@@H]4[C@@]5(C)CC[C@H](O)C(C)(C)[C@@H]5CC[C@]43C)[C@@H]12,,>3 µM
CCOC(=O)CSc1cc(NC(=S)c2ccoc2C)ccc1Cl,,≥100 µg/mL
O=C(O)C(SC1=NNC2(C(=O)N1)c1ccccc1-c1ccccc12)SC1=NNC2(C(=O)N1)c1ccccc1-c1ccccc12,,15 µM
NS(=O)(=O)c1ccc(NC(=O)c2ccccc2O)cc1,,>100 µM
Cc1cnc2n1S(=O)(=O)c1cc(C(=O)NCC(C)C)c(Cl)cc1S2,,>200 µM
Nc1cc(OCC2O[C@H](COCc3ccccc3)[C@@H](OCc3ccccc3)[C@H]2OCc2ccccc2)nc(N)n1,,23 µM
CC(C)OC(=O)c1cc(NC(=S)c2ccccc2)ccc1Cl,,4.3 µg/mL